System: prion replication in SMB cells
Assay: Bioassay of prion infectivity of treated SMB cells in CD-1 Swiss mice
Assay type: in vivo, mouse
Conditions: CD-1 Swiss mice (n=12) inoculated intracerebrally with SMB cells treated 7 passages with 50 μM; ±SEM; vehicle 126±1.3 days

CC(C)[C@H](NC(=O)OCc1ccccc1)C(=O)N[C@H](C=O)Cc1ccccc1 [MDL28170, Carbobenzoxy-valinyl-phenylalaninal]
mean incubation time: 170 ± 2 days
